Results of unrelated studies side by side (data: NIAID ChemDB).

Common to all: whole-cell or culture tests; species: Candida glabrata

ECn: concentration that inhibits the pathogen or its effect by n%.

{"structure": "C[C@@H]1C(=O)N(Cc2ccccc2)C(=O)[C@@H]1C", "read-out": "MIC", "method": "broth dilution / turbidity", "strain": "CCC 115-2000", "result": "125 µg/mL"}
{"structure": "CC[C@@H]([C@H](C)O)n1ncn(-c2ccc(N3CCN(c4ccc(OC[C@@H]5CO[C@@](Cn6cncn6)(c6ccc(F)cc6F)C5)cc4)CC3)cc2)c1=O", "read-out": "MIC", "method": "broth dilution", "strain": "8658", "result": "0.25 µg/mL"}
{"structure": "C=CCc1ccc(O)c(OC)c1", "read-out": "MIC90", "method": "turbidity", "strain": "2892", "result": "500 µg/mL"}
{"structure": "C[C@@H]1CC(=O)N(CCc2ccccc2)C1=O", "read-out": "MIC", "method": "broth dilution / turbidity", "strain": "CCC 115-2000", "result": "62.5 µg/mL"}
{"structure": "CCOc1ccc2nc3cc(N=C4NC(=O)/C(=C\\c5ccc([N+](=O)[O-])cc5)S4)ccc3c(N)c2c1", "read-out": "MIC", "method": "broth dilution", "result": "500 µg/mL"}
{"structure": "CC(C)CC(=O)C(=O)O", "read-out": "MFC100", "method": "broth dilution", "strain": "G 212", "result": ">72000 µg/mL"}
{"structure": "Clc1ccccc1C(c1ccccc1)(c1ccccc1)n1ccnc1", "conditions": "pH 5", "read-out": "MIC", "method": "broth dilution", "strain": "40 isolates", "result": "4 µg/mL"}
{"structure": "CCC(C)CC(C)CCCCCCCCC(=O)N[C@H]1C[C@@H](O)[C@H](NCCN)NC(=O)[C@@H]2[C@@H](O)CCN2C(=O)[C@H]([C@H](O)CCN)NC(=O)[C@H]([C@H](O)[C@@H](O)c2ccc(O)cc2)NC(=O)[C@@H]2C[C@@H](O)CN2C(=O)[C@H]([C@@H](C)O)NC1=O", "read-out": "MIC", "method": "broth dilution", "strain": "8659", "result": "2 µg/mL"}
{"structure": "CCC(C)n1ncn(-c2ccc(N3CCN(c4ccc(OC[C@H]5CO[C@](Cn6cncn6)(c6ccc(Cl)cc6Cl)O5)cc4)CC3)cc2)c1=O", "conditions": "pH 5", "read-out": "MIC", "method": "broth dilution", "strain": "40 isolates", "result": ">16 µg/mL"}
{"structure": "C[C@@H]1CC(=O)N(c2ccc(F)cc2F)C1=O", "read-out": "MIC", "method": "broth dilution / turbidity", "strain": "CCC 115-2000", "result": "62.5 µg/mL"}
{"structure": "Nc1[nH]c(=O)ncc1F", "conditions": "pH 4", "read-out": "MIC", "method": "broth dilution", "strain": "40 isolates", "result": "0.125 µg/mL"}
{"structure": "CC1C(=O)N(c2ccccc2)C(=O)C1C", "read-out": "MIC", "method": "broth dilution / turbidity", "strain": "CCC 115-2000", "result": "125 µg/mL"}
{"structure": "CC[C@@H]([C@H](C)O)n1ncn(-c2ccc(N3CCN(c4ccc(OC[C@@H]5CO[C@@](Cn6cncn6)(c6ccc(F)cc6F)C5)cc4)CC3)cc2)c1=O", "conditions": "pH 4", "read-out": "EC90", "method": "broth dilution", "strain": "40 isolates", "result": ">16 µg/mL"}
{"structure": "CC(C)CC(O)C(=O)O", "read-out": "MFC100", "method": "broth dilution / visual reading", "strain": "G 212", "result": "72000 µg/mL"}

The last 2 rows once more:

structure | conditions | read-out | method | strain | result
CC[C@@H]([C@H](C)O)n1ncn(-c2ccc(N3CCN(c4ccc(OC[C@@H]5CO[C@@](Cn6cncn6)(c6ccc(F)cc6F)C5)cc4)CC3)cc2)c1=O | pH 4 | EC90 | broth dilution | 40 isolates | >16 µg/mL
CC(C)CC(O)C(=O)O | - | MFC100 | broth dilution / visual reading | G 212 | 72000 µg/mL

Blank or dashed fields: not listed here. MIC50, MIC90 and the like: level of inhibition, or share of isolates inhibited. Conditions beyond the fields shown may differ between rows.